Compound potency records, mixed from different reports. Data source: NIAID ChemDB in PubChem.

All rows: tests in culture; organism: Mycobacterium tuberculosis

A number after MIC or MFC names an inhibition level or a share of isolates.

smiles	mutations	cell line	method	measure	dose	strain	value
NCCc1ccc2oc3cc(=O)c4ccccc4c-3nc2c1	-	-	BACTEC	inhibition	12.5 µg/mL	H37Rv	100%
C=C1C(=O)O[C@@H]2C[C@@]3(C)CCCC(=C)[C@@H]3C[C@H]12	-	-	-	MIC	-	H37Rv	32 µg/mL
CC1=C(C(=O)Nc2ccc(F)c(Cl)c2)C(c2ccc(F)cc2)C(C(=O)Nc2ccc(F)c(Cl)c2)=C(C)N1	-	-	-	MIC	-	H37Rv	>6.25 µg/mL
N#Cc1ccc(N2CC3CC2CN3Cc2ccc([N+](=O)[O-])o2)cc1	INH RFP resistant	-	resazurin	MIC90	-	Clinical Isolate 16833	6.54 µg/mL
Cc1cc(O)c2c(c1)C(=O)C(c1c(C)cc3c(c1O)C(=O)C1OC1C3=O)=CC2=O	-	-	BACTEC	inhibition	12.5 µg/mL	H37Rv	100%
CCCCCCCCNCc1ccc(Cl)cc1	-	-	-	MIC	-	H37Ra	<25 µg/mL
COC(=O)C(CO)NC(=O)C(Cc1cnc[nH]1)N(C(=O)OCc1ccccc1)C(=O)OCc1ccccc1	-	-	BACTEC	inhibition	12.8 µg/mL	H37Rv	18%
Oc1ccccc1CNCCCCCCCCCCCCNCc1ccccc1O	-	-	-	MIC	-	Sensitive strains	3.12 µg/mL
C=C1C(=O)OC2CC3(C)CC(O)CC(=C)C3CC12	-	-	-	MIC	-	H37Rv	64 µg/mL
COC(=O)/C(=N\Nc1cccnc1)c1ccccn1	-	-	resazurin	MIC bound	-	H37Rv	>6.25 µg/mL
CCOC(=O)C(CC)Sc1nc(N)c2c3c(sc2n1)CC(C(C)(C)C)CC3	-	-	MTT / visual reading	MIC	-	H37Rv	>200 µg/mL
C=C1CC[C@@H](O)[C@]2(C)CC[C@@H]3[C@H](OC(=O)[C@H]3C)[C@@H]12	-	-	-	MIC	-	H37Rv	>128 µg/mL
CC(=O)c1cc([N+](=O)[O-])c2nc(C34CC5CC(CC(C5)C3)C4)ccc2c1	-	-	-	MIC	-	H37Rv	>6.25 µg/mL
Cc1cn2c(C(=O)NCc3cccc(F)c3)c(C)nc2s1	-	-	luminescence	MIC	-	H37Rv	>100 µM
C[C@@H]1CN(c2c(F)c(N)c3c(=O)c(C(=O)O)cn(C4CC4)c3c2F)C[C@H](C)N1	-	-	-	MIC90	-	20 strains	0.5 µg/mL
CO[C@H]1/C=C/O[C@@]2(C)Oc3c(C)c(O)c4c(O)c(c(N5CCN(Cc6c(C)cc(C)cc6C)CC5)c(O)c4c3C2=O)NC(=O)/C(C)=C\C=C\[C@H](C)[C@H](O)[C@@H](C)[C@@H](O)[C@@H](C)[C@H](OC(C)=O)[C@@H]1C	-	-	-	MBC	-	1620-4	0.12 µg/mL
COc1c(N2CCNC(C)C2)c(F)cc2c(=O)c(C(=O)O)cn(C3CC3)c12	-	-	-	EC50	-	H37Rv	0.072 µg/mL
Oc1ccccc1CNCCCNCc1ccccc1O	-	-	-	MIC	-	H37Ra	>25 µg/mL
Cc1cn2c(C(=O)NCc3ccc(N4CCN(c5ccc(C(F)(F)F)cn5)CC4)c(F)c3)c(C)nc2s1	cydKO	-	resazurin / fluorescence	MIC	-	H37Rv	0.003 µM
O=C(C1CCCCC1)N1CCC(NS(=O)(=O)c2cccc3cnccc23)CC1	Inosine monophosphate dehydrogenase-resistant	-	resazurin	MIC90	-	SRMV2.6	>100 µM
CC(=O)c1cc([N+](=O)[O-])c2ncccc2c1C(C)C	-	-	-	MIC	-	H37Rv	>6.25 µg/mL
OCCNc1nn2ccnc2c2ccccc12	-	-	BACTEC	inhibition	12.5 µg/mL	H37Rv	0%
CCCCCCCCC=CCCCCCCCCNCc1ccc(OC)c(OC)c1	-	-	-	MIC	-	Clinical isolates MDR	6.25 µg/mL
NNC(=O)c1ccncc1	-	-	-	MIC	-	H37Rv	0.08 µg/mL
CC1=C(C(=O)Nc2ccc([N+](=O)[O-])cc2)C(c2ccccc2O)C(C(=O)Nc2ccc([N+](=O)[O-])cc2)=C(C)N1	-	-	-	MIC	-	H37Rv	>12.5 µg/mL
CC(C)=CCC[C@@H](C)c1ccc(C)cc1O	-	-	-	MIC	-	H37Rv	16 µg/mL
Cc1cn2c(C(=O)NCc3ccc(N4CCC(c5ccc(OC(F)(F)F)cc5)CC4)cc3)c(C)nc2s1	-	-	luminescence	MIC	-	H37Rv	1.31 µM
O=C(c1ccccc1)N1CCN(S(=O)(=O)c2cccc3cnccc23)CC1	-	-	resazurin	MIC90	-	H37Rv	>100 µM
NCC[C@H](O)C(=O)N[C@@H]1C[C@H](N)[C@@H](O[C@H]2O[C@H](CN)[C@@H](O)[C@H](O)[C@H]2O)[C@H](O)[C@H]1O[C@H]1O[C@H](CO)[C@@H](O)[C@H](N)[C@H]1O	-	-	-	MIC	-	3S	2.5 µg/mL
CCc1ccnc2c(N)cc(C(C)=O)c(OC3CCCC3)c12	-	-	-	MIC	-	H37Rv	>6.25 µg/mL
c1ccc2c(-c3nc4ccccc4c4ccccc34)nccc2c1	-	-	BACTEC	MIC bound	-	H37Rv	>12.5 µg/mL
O=[N+]([O-])c1ccc(CN2CCC3(CC2)CCN(c2ccc(OC(F)(F)F)cc2)CC3)o1	INH RFP resistant	-	resazurin	MIC90	-	Clinical Isolate 16995	4.29 µg/mL
CC1(C)CC[C@]2(CO)CC[C@]3(C)C(=CCC4[C@@]5(C)CC[C@H](O)C(C)(C)C5CC[C@]43C)C2C1	-	-	-	MIC	-	H37Rv	64 µM
O=C(O)CCCCCN1C(=O)C2OC3C(=O)N(CCCCCC(=O)O)C(=O)C3C2C1=O	-	-	BACTEC	MIC bound	-	H37Rv	>12.5 µg/mL
C=C1C(=O)O[C@@H]2/C=C(\C)CC[C@H]3OC3(C)CC[C@@H]12	-	-	-	MIC	-	H37Rv	64 µg/mL
COc1cccc(NC(=O)C2=C(C)NC(C)=C(C(=O)Nc3cccc(OC)c3)C2c2ccccc2S)c1	-	-	-	MIC	-	H37Rv	>12.5 µg/mL
COc1cc2c(cc1OC)C1CC3(CCN1CC2)CC(=O)NC3=O	-	-	BACTEC	inhibition	12.5 µg/mL	H37Rv	0%
COc1c(C(C)=O)cc([N+](=O)[O-])c2ncccc12	-	-	-	inhibition	6.25 µg/mL	H37Rv	0%
CCCCc1ccc(Nc2c(C#N)[n+]([O-])c3cc(Cl)ccc3[n+]2[O-])cc1	-	-	-	EC50	-	H37Rv	<12.5 µg/mL
COc1c(N2C[C@@H]3CCCN[C@@H]3C2)c(F)cc2c(=O)c(C(=O)O)cn(C3CC3)c12	-	-	-	MIC	-	Strain 474	0.06 µg/mL
CC(C)(C)c1ccc(N2CCC3(CCN(Cc4ccc([N+](=O)[O-])o4)CC3)CC2)cc1	INH RFP resistant	-	resazurin	MIC90	-	Clinical Isolate 16833	4.25 µg/mL
O=C1OC(c2ccccc2)=N/C1=C\c1cc([N+](=O)[O-])ccc1Cl	-	-	BACTEC	inhibition	12.5 µg/mL	H37Rv	0%
CC1=C(C(=O)Nc2ccc(F)cc2)C(c2cccc([N+](=O)[O-])c2)C(C(=O)Nc2ccc(F)cc2)=C(C)N1	-	-	-	MIC	-	H37Rv	>6.25 µg/mL
CCCCCCOc1c(C(C)=O)cc(N)c2nccc(CC)c12	-	-	-	MIC	-	H37Rv	>6.25 µg/mL
C[C@@H]1CCC([C@@H](C)C(=O)OCCO)[C@@]23OO[C@@](C)(CCC12)O3	-	-	agar	MIC	-	H37Rv	>12.5 µg/mL
O=C(Nc1ccc2c(c1)OCO2)N1CCCN(S(=O)(=O)c2cccc3cnccc23)CC1	Inosine monophosphate dehydrogenase-resistant	-	resazurin	MIC90	-	SRMV2.6	>100 µM
C[C@@H]1CN(c2c(F)c(N)c3c(=O)c(C(=O)O)cn(C4CC4)c3c2F)C[C@H](C)N1	-	-	-	MIC90	-	22 strains (rifampicin-susceptible)	0.2 µg/mL
CC(C)=CC(=O)CC(=O)C(=O)NCCNC(=O)C(=O)CC(=O)C=C(C)C	-	-	-	inhibition	6.25 µg/mL	H37Rv	-10%
COc1cc(CNC2CC2)ccc1O	-	-	-	MIC	-	H37Ra	>25 µg/mL
N#Cc1ccc(N2CC3CCC2CN3Cc2ccc([N+](=O)[O-])o2)cc1	INH RFP resistant	-	resazurin	MIC90	-	Clinical Isolate 16995	8.89 µg/mL
CC(C)(C)C1CCc2c(sc3nc(SCc4ncco4)nc(N)c23)C1	-	-	MTT / visual reading	MIC	-	H37Rv	25 µg/mL
CC(C)[C@@H](C)/C=C/[C@@H](C)[C@H]1CCC2[C@@]34C=C[C@]5(C[C@@H](O)CC[C@]5(C)C3CC[C@@]21C)OO4	-	-	-	MIC	-	H37Rv	1 µg/mL
CCCCCCCCCCCCCCCCNCc1ccc(O)c(OC)c1	-	-	-	MIC	-	Sensitive strains	3.12 µg/mL
CC1CN(S(=O)(=O)c2cccc3cnccc23)CCN1C(=O)Nc1ccc2c(c1)OCO2	Inosine monophosphate dehydrogenase-resistant	-	resazurin	MIC90	-	SRMV2.6	>100 µM
CCCCCCC(O)C/C=C/CCCCCCc1c(C(=O)OC)[nH]c(=S)[nH]c1=O	-	-	BACTEC	MIC bound	-	H37Rv	>12.5 µg/mL
NNC(=O)c1ccncc1	-	-	-	MIC	-	Strain 7	0.125 µg/mL
NNC(=O)c1ccncc1	-	-	-	EC50	-	H37Rv	0.065 µg/mL
COc1cc(C(=O)N2CCN(S(=O)(=O)c3cccc4cnccc34)CC2)cc(OC)c1OC	Inosine monophosphate dehydrogenase-resistant	-	resazurin	MIC90	-	SRMV2.6	>125 µM
CO[C@H]1/C=C/O[C@@]2(C)Oc3c(C)c(O)c4c(O)c(c(/C=N/N5CCN6CCCCC6C5)c(O)c4c3C2=O)NC(=O)/C(C)=C\C=C\[C@H](C)[C@H](O)[C@@H](C)[C@@H](O)[C@@H](C)[C@H](OC(C)=O)[C@@H]1C	-	-	-	MIC	-	Rifampicin-resistant	>3 µg/mL
Nc1c(-c2cn(Cc3ccccc3)c3ccccc23)[n+]([O-])c2ccccc2[n+]1[O-]	-	-	BACTEC	inhibition	12.5 µg/mL	H37Rv	45%
CO[C@H]1/C=C/O[C@@]2(C)Oc3c(C)c(O)c4c(=O)c(c5oc6cc(N7CCN(CC(C)C)CC7)cc(=O)c6nc5c4c3=C2O)NC(=O)/C(C)=C\C=C\[C@H](C)[C@H](O)[C@@H](C)[C@@H](O)[C@@H](C)[C@H](OC(C)=O)[C@@H]1C	-	-	-	MIC50	-	22 strains (rifampicin-susceptible)	≤0.05 µg/mL
CC(C)(OC(=O)CSc1nc(N)c2c3c(sc2n1)CC(C(C)(C)C)CC3)c1ccccc1	-	-	MTT / visual reading	MIC	-	H37Rv	25 µg/mL
CC1(C)CCC[C@@]2(C)C1C[C@H](O)[C@]1(C)C2CCC2[C@@]3(C)CC[C@H](C(C)(C)O)C3CC[C@]21C	-	-	-	MIC	-	H37Rv	>128 µM
OC1(c2ccccc2C(O)(C(F)(F)F)C(F)(F)F)OC(C(F)(F)F)(C(F)(F)F)c2ccccc21	-	-	BACTEC	inhibition	12.5 µg/mL	H37Rv	15%
CCCCCCCCCCCCNC(CC(=O)OCC)c1cccc([N+](=O)[O-])c1	-	-	-	MIC	-	H37Ra	>25 µg/mL
CCCC[N+](CCCC)=c1ccc2nc3c(C)cc(N(CC)CC)cc3sc-2c1	-	-	-	MIC	-	H37Rv	0.4 µg/mL
Cc1cn2c(C(=O)NCc3ccc(N4CCOCC4)c(F)c3)c(C)nc2s1	K14b00DS	-	resazurin / fluorescence	MIC	-	H37Rv	0.37 µM
Oc1cc(N2CCCC2)ccc1/C=N/N1C(=S)N(c2ccccc2)C(=Nc2ccccc2)C1=Nc1ccccc1	-	-	BACTEC	MIC bound	-	H37Rv	>12.5 µg/mL
Cc1cc(CSc2nc(N)c3c4c(sc3n2)CC(C(C)(C)C)CC4)on1	-	-	MTT / visual reading	MIC	-	H37Rv	50 µg/mL
O=[N+]([O-])c1ccc(SSc2ccc([N+](=O)[O-])cn2)nc1	-	-	resazurin	MIC bound	-	H37Rv	>6.25 µg/mL
CN(C)CCCN1c2ccccc2Sc2ccc(Cl)cc21	-	-	-	MBC	-	Isolate C drug-resistant	40 µg/mL
NC(=O)C1=C[C@H]2[C@H]3C=C[C@@]2(O)C(=O)O[C@@H]3O1	-	-	-	MIC	-	EMB-R	12.5 µg/mL
CC(=O)c1cc([N+](=O)[O-])c2nc(C3CCCC3)ccc2c1C1CCCC1	-	-	-	MIC	-	H37Rv	>6.25 µg/mL
Nc1cc2nc3ccccc3sc-2cc1=O	-	VERO	BACTEC	MIC	-	H37Rv	0.2 µg/mL
C=C1C(=O)O[C@@H]2/C=C(\C)CC/C=C(\C)CC[C@@H]12	-	-	-	MIC	-	H37Rv	32 µg/mL
CCOc1ccc2c(c1)n([O-])c1cc(Cl)ccc1[n+]2=O	-	-	-	MIC	-	PZA-R	1.6 µg/mL
O=[N+]([O-])c1ccc(CN2CC3CN(c4cccc(C(F)(F)F)c4)CC3C2)o1	INH RFP resistant	-	resazurin	MIC90	-	Clinical Isolate 16833	0.016 µg/mL

Repeating the first 4 entries:

smiles | mutations | cell line | method | measure | dose | strain | value
NCCc1ccc2oc3cc(=O)c4ccccc4c-3nc2c1 | - | - | BACTEC | inhibition | 12.5 µg/mL | H37Rv | 100%
C=C1C(=O)O[C@@H]2C[C@@]3(C)CCCC(=C)[C@@H]3C[C@H]12 | - | - | - | MIC | - | H37Rv | 32 µg/mL
CC1=C(C(=O)Nc2ccc(F)c(Cl)c2)C(c2ccc(F)cc2)C(C(=O)Nc2ccc(F)c(Cl)c2)=C(C)N1 | - | - | - | MIC | - | H37Rv | >6.25 µg/mL
N#Cc1ccc(N2CC3CC2CN3Cc2ccc([N+](=O)[O-])o2)cc1 | INH RFP resistant | - | resazurin | MIC90 | - | Clinical Isolate 16833 | 6.54 µg/mL

MIC bound: limit read from a one-dose screen. Percent inhibition refers to the dose given; in toxicity tests it is the harm to the cells. ECn: concentration that inhibits the pathogen or its effect by n%. Conditions beyond the fields shown may differ between rows. An empty or dashed field is not shown.